In ChEMBL document CHEMBL1275581, “Detection of the pandemic O25-ST131 human virulent Escherichia coli CTX-M-15-producing clone harboring the qnrB2 and aac(6')-Ib-cr genes in a dog” (2009) one finds MIC data, which are given here for one sequence.

This experiment relates to Escherichia coli. As to conditions: J53.

As for GENTAMICIN, 0.5 mg/L was the least that counted as inhibitory (MIC).
